Results of unrelated studies side by side (data: NIAID ChemDB).

Common to all: whole-cell or culture tests; agent: Hepatitis C virus

ECn: concentration that inhibits the pathogen or its effect by n%.

{"smiles": "CC(C)OC(=O)[C@H](C)N[P@](=O)(OCC1O[C@@H](n2ccc(=O)[nH]c2=O)[C@](C)(F)[C@@H]1O)Oc1ccccc1", "endpoint": "EC50", "strain": "GT1b", "cell line": "1C", "method": "luciferase", "result": "0.04 µM"}
{"smiles": "CN(C)C(=O)c1ccc(COc2ccc(-c3nc4cc(C(=O)O)ccc4n3C3CCCCC3)cc2)c(-c2ccc(Cl)cc2)c1", "endpoint": "EC50", "cell line": "Huh7", "method": "replicon", "result": "0.37 µM"}
{"smiles": "CCOc1nc(N)nc2c1ncn2[C@@H]1O[C@H](COP(=O)(N[C@@H](C)C(=O)OCC(C)(C)C)Oc2ccccc2)[C@@H](F)[C@@]1(C)O", "endpoint": "EC50", "cell line": "Huh7", "method": "luciferase", "result": "<1 µM"}
{"smiles": "O=C1OC2(c3ccc(O)cc3Oc3cc(O)ccc32)c2c1c(-c1ccccc1)c(-c1ccccc1)c(-c1ccccc1)c2-c1ccccc1", "endpoint": "EC50", "strain": "JFH-1", "cell line": "Huh7-1", "method": "PCR", "result": "13.2 µM"}
{"smiles": "C=C[C@@H]1C[C@]1(NC(=O)[C@@H]1C[C@@H]2CN1C(=O)[C@H](C(C)(C)C)NC(=O)C[C@@H]1C[C@H]1CCCCCc1nc3ccc(OC)cc3nc1O2)C(=O)NS(=O)(=O)C1CC1", "endpoint": "EC50", "changes": "P89L K583E", "strain": "GT3a", "cell line": "1C", "method": "luciferase", "result": "0.051 µM"}
{"smiles": "CCOc1nc(N)nc2c1ncn2[C@@H]1O[C@H](COP(=S)(N[C@@H](C)C(=O)OC(C)C)Oc2ccccc2)[C@@H](F)[C@@]1(C)O", "endpoint": "EC50", "cell line": "Huh7", "method": "luciferase", "result": "10–100 µM"}
{"smiles": "Cc1cn([C@H]2C[C@H](N=[N+]=[N-])[C@@H](CO)O2)c(=O)[nH]c1=O", "endpoint": "EC50", "setting": "45% human serum", "strain": "GT1b", "cell line": "Replicon cells", "method": "luciferase", "result": "85.7 µM"}
{"smiles": "CC1CCC(C(=O)N(c2cc(C#CC(C)(C)C)sc2C(=O)O)C2CCC(O)CC2)CC1", "endpoint": "EC50", "strain": "GT-1b Con1", "cell line": "Huh7-Lunet", "method": "luciferase", "result": "0.006 µM"}
{"smiles": "CC(=O)OC1CCC2(C)C(CCC3C2CC(=O)C2(C)C3CC(N3CC3)C2C(C)=O)C1", "endpoint": "EC50", "strain": "JFH-1", "cell line": "Huh7-1", "method": "PCR", "result": "2.1 µM"}
{"smiles": "O=C(O)c1c(-c2ccc(F)cc2)nc(NCc2nc3ccccc3[nH]2)[nH]c1=O", "endpoint": "EC50", "cell line": "Huh7", "method": "replicon / PCR", "result": "0.546 µM"}
{"smiles": "CC[C@@H]1C[C@]1(NC(=O)[C@@H]1C[C@@H](Oc2cc(-c3csc(NC(C)C)n3)nc3c(Cl)c(OCCN4CCOCC4)ccc23)CN1C(=O)[C@@H](NC(=O)OC1C[C@@H]2C[C@@H]2C1)C(C)(C)C)C(=O)O", "endpoint": "EC50", "changes": "P89L K583E", "strain": "GT3a", "cell line": "1C", "method": "luciferase", "result": "2.039 µM"}
{"smiles": "CC1=CCC[C@@]2(C)O[C@H]2[C@H]2OC(=O)[C@@H](C)[C@@H]2CC1", "endpoint": "EC50", "cell line": "Huh7", "method": "replicon", "result": ">10 µM"}
{"smiles": "C[C@@]1(O)[C@H](O)[C@@H](CO)O[C@H]1C1C=Nc2c(N)ncn[n+]21", "endpoint": "EC50", "strain": "GT1b", "cell line": "Huh7", "method": "replicon", "result": "1.28 µM"}
{"smiles": "CC[C@H]1C[C@]1(NC(=O)[C@@H]1C[C@@H]2CN1C(=O)[C@H](C(C)(C)C)NC(=O)OCC(C)(C)CCCCc1cccc3c1CN(C3)C(=O)O2)C(=O)NS(=O)(=O)C1CC1", "endpoint": "EC50", "strain": "SA13", "cell line": "Huh7.5", "method": "antigen", "result": "0.022 µM"}
{"smiles": "O=C1Nc2ccc(Cl)cc2[C@@](C#CC2CC2)(C(F)(F)F)O1", "endpoint": "EC50", "setting": "45% human serum", "strain": "GT1b", "cell line": "Replicon cells", "method": "luciferase", "result": "≥172 µM"}
{"smiles": "C[C@H](NP(=O)(OC[C@H]1O[C@@H](n2cnc3c(=O)[nH]c(N)nc32)[C@](C)(O)[C@@H]1F)Oc1ccc(F)c(Cl)c1)C(=O)OC1CCCCC1", "endpoint": "EC50", "cell line": "Huh7", "method": "luciferase", "result": "10–100 µM"}
{"smiles": "CCCC(NC(=O)[C@@H]1C[C@@H](OC(C)(C)C)CN1C(=O)[C@@H](NC(=O)OCC(C)C)C(C)(C)C)C(=O)C(=O)NCC(=O)N[C@H](C(=O)N(C)C)c1ccccc1", "endpoint": "EC90", "result": "3 µM"}
{"smiles": "ClCc1nc2ccccc2[nH]1", "endpoint": "EC50", "cell line": "Huh7", "method": "replicon / PCR", "result": "0.25 µM"}
{"smiles": "C/C1=C\\CC[C@@]2(C)O[C@H]2[C@H]2OC(=O)[C@@H](CN3CCC[C@H]3C(=O)O)[C@@H]2CC1", "endpoint": "EC50", "cell line": "Huh7", "method": "replicon", "result": "2.24 µM"}
{"smiles": "CC(=O)CC[C@H]1C(=O)N[C@@H](C(C)C)C(=O)N[C@@H](Cc2cccc(O)c2)C(=O)N2CCCC(N2)C(=O)O[C@H](/C(C)=C/C=C/C(=O)N2CCCCO2)C/C=C/C=C/[C@H](O)[C@H](C)[C@H]1O", "endpoint": "EC50", "strain": "1b Con1", "cell line": "Huh7", "method": "luciferase", "result": "0.06 µM"}
{"smiles": "Cc1c2cc[n+](CCN3CCCCC3)cc2c(C)c2c1[nH]c1ccc(O)cc12", "endpoint": "EC50", "strain": "JFH-1", "cell line": "Huh7-1", "method": "PCR", "result": "2.5 µM"}
{"smiles": "C[C@@H]1CC[C@H]2[C@@H](C)C(=O)O[C@@H]3OC4(C)CC[C@@H]1[C@]32OO4", "endpoint": "EC50", "cell line": "Huh 5-2", "method": "replicon", "result": "78 µM"}
{"smiles": "C[C@@]1(O)[C@H](O)[C@@H](CO)O[C@H]1n1cnc2c(N)ncnc21", "endpoint": "EC50", "strain": "GT 1a-H77", "cell line": "Huh7-Lunet", "method": "luciferase", "result": "0.625 µM"}
{"smiles": "COc1ccc2c(OC3CC(C(=O)NC4(C(=O)NS(=O)(=O)c5ccccc5)CC4)N(C(=O)[C@@H](NC(=O)OC(C)(C)C)C(C)C)C3)cc(-c3ccccc3)nc2c1", "endpoint": "EC50", "cell line": "Huh7", "method": "replicon", "result": "1.1 µM"}
{"smiles": "CCOc1nc(N)nc2c1ncn2[C@@H]1O[C@H](COP(=O)(N[C@@H](C)C(=O)OC2CCCCC2)Oc2ccccc2)[C@@H](F)[C@@]1(C)O", "endpoint": "EC50", "cell line": "Huh7", "method": "luciferase", "result": "<1 µM"}
{"smiles": "CC(C)(C)NC(=O)N[C@H](C(=O)N1C[C@H]2[C@@H]([C@H]1C(=O)NC(CC1CCC1)C(=O)C(N)=O)C2(C)C)C(C)(C)C", "endpoint": "EC50", "strain": "GT1b", "cell line": "1C", "method": "luciferase", "result": "0.204 µM"}
{"smiles": "C=CC1CC1(NC(=O)C1CC(Oc2cc(-c3ccccc3)nc3cc(OC)ccc23)CN1C(=O)[C@@H](NC(=O)OC(C)(C)C)C(C)C)C(=O)NS(=O)(=O)c1ccccc1", "endpoint": "EC50", "cell line": "Huh7", "method": "replicon", "result": "0.04 µM"}
{"smiles": "COc1ccc2c(O[C@@H]3C[C@H]4C(=O)N[C@]5(C(=O)NS(=O)(=O)C6CC6)C[C@H]5/C=C\\CCCCN(C)C(=O)[C@@H]4C3)cc(-c3nc(C(C)C)cs3)nc2c1C", "endpoint": "EC50", "changes": "L1062M R1181K", "strain": "JFH1Res", "cell line": "Huh7.5", "method": "antigen", "result": "2.164 µM"}
{"smiles": "Cc1cn([C@@H]2C[C@@H](O)[C@H](CO)O2)c(=O)[nH]c1=O", "endpoint": "EC50", "setting": "45% human serum", "strain": "GT1b", "cell line": "Replicon cells", "method": "luciferase", "result": ">220 µM"}
{"smiles": "N#Cc1c(-c2ccc(O)cc2)nc(SCc2nc3ccccc3[nH]2)[nH]c1=O", "endpoint": "EC90", "cell line": "Huh7", "method": "replicon / PCR", "result": "0.321 µM"}
{"smiles": "COc1ccc2c(OC3CC(C(=O)NC4(C(=O)O)CC4)N(C(=O)[C@@H](NC(=O)OC(C)(C)C)C(C)C)C3)cc(-c3ccccc3)nc2c1", "endpoint": "EC50", "cell line": "Huh7", "method": "replicon", "result": ">10 µM"}
{"smiles": "C=C1C(=O)O[C@H]2[C@H]1CC/C(C)=C/CC[C@@]1(C)O[C@@H]21", "endpoint": "EC50", "cell line": "Huh7", "method": "replicon", "result": "2.21 µM"}
{"smiles": "CCC[C@H](NC(=O)C1CC(Oc2cc(-c3ccccc3)nc3cc(OC)ccc23)CN1C(=O)[C@@H](NC(=O)OC(C)(C)C)C(C)C)C(=O)NS(C)(=O)=O", "endpoint": "EC50", "cell line": "Huh7", "method": "replicon", "result": ">10 µM"}
{"smiles": "C=C1C(=O)O[C@@H]2C[C@@H](C)[C@@H]3C=CC(=O)[C@@]3(C)[C@@H](O)[C@H]12", "endpoint": "EC50", "cell line": "Huh7", "method": "replicon", "result": "1.25 µM"}
{"smiles": "C[C@H](NP(=O)(OC[C@H]1O[C@@H](n2cnc3c(=O)[nH]c(N)nc32)[C@](C)(O)[C@@H]1F)Oc1ccccc1)C(=O)OC1CCCCC1", "endpoint": "EC50", "cell line": "Huh7", "method": "luciferase", "result": "1–10 µM"}
{"smiles": "C[C@H](Br)C(=O)c1ccc2cc(Br)c3ccccc3c2c1", "endpoint": "EC50", "strain": "sg1a (H77)", "cell line": "Huh7-1", "method": "PCR", "result": "9.9 µM"}
{"smiles": "Fc1ccccc1-c1nc2ccn(Cc3ccc(-c4ccc(C(F)(F)F)cc4C(F)(F)F)nn3)cc-2n1", "endpoint": "EC50", "changes": "P89L K583E", "strain": "GT3a", "cell line": "1C", "method": "luciferase", "result": "0.059 µM"}
{"smiles": "C=C1C(=O)O[C@@H]2C[C@@]3(C)CCC[C@H](C)C3=C[C@H]12", "endpoint": "EC50", "cell line": "Huh7", "method": "replicon", "result": "2.03 µM"}
{"smiles": "CC1(O)C(O)C(CO)OC1n1cnc2c(N)ncnc21", "endpoint": "EC50", "strain": "GT1b", "cell line": "1C", "method": "luciferase", "result": "0.086 µM"}
{"smiles": "CCOc1nc(N)nc2c1ncn2[C@@H]1O[C@H](COP(=O)(N[C@@H](C)C(=O)OC2CCCCC2)Oc2ccc(F)c(Cl)c2)[C@@H](F)[C@@]1(C)O", "endpoint": "EC50", "cell line": "Huh7", "method": "luciferase", "result": "<1 µM"}
{"smiles": "CCN(CC)CCN1C(=O)c2cccc3cc(N)cc(c23)C1=O", "endpoint": "EC50", "strain": "sg1a (H77)", "cell line": "Huh7-1", "method": "PCR", "result": "5.6 µM"}

A second listing of 5 rows from above:

smiles,endpoint,setting,changes,strain,cell line,method,result
C[C@H](NP(=O)(OC[C@H]1O[C@@H](n2cnc3c(=O)[nH]c(N)nc32)[C@](C)(O)[C@@H]1F)Oc1ccc(F)c(Cl)c1)C(=O)OC1CCCCC1,EC50,-,-,-,Huh7,luciferase,10–100 µM
O=C1OC2(c3ccc(O)cc3Oc3cc(O)ccc32)c2c1c(-c1ccccc1)c(-c1ccccc1)c(-c1ccccc1)c2-c1ccccc1,EC50,-,-,JFH-1,Huh7-1,PCR,13.2 µM
CCOc1nc(N)nc2c1ncn2[C@@H]1O[C@H](COP(=O)(N[C@@H](C)C(=O)OCC(C)(C)C)Oc2ccccc2)[C@@H](F)[C@@]1(C)O,EC50,-,-,-,Huh7,luciferase,<1 µM
O=C1Nc2ccc(Cl)cc2[C@@](C#CC2CC2)(C(F)(F)F)O1,EC50,45% human serum,-,GT1b,Replicon cells,luciferase,≥172 µM
COc1ccc2c(OC3CC(C(=O)NC4(C(=O)O)CC4)N(C(=O)[C@@H](NC(=O)OC(C)(C)C)C(C)C)C3)cc(-c3ccccc3)nc2c1,EC50,-,-,-,Huh7,replicon,>10 µM

Two numbers with a dash give a range or band. Neighbouring rows are from separate reports. An empty or dashed field is not shown.